Measured values from US8518677B2, “Microbial bioreaction process” (Evolva Sa, priority 2007, dated 2013).

Experiment: Stilbenoid levels in batch culture of solvent-adapted PALCPR, dodecane/octylacetate two-phase vs control (HPLC)
Parameters: species or system S. cerevisiae
Conditions: for Supernatant, no ethanol / Supernatant, ethanol: PALCPR-control, no solvent; for Supernatant, ethanol: broth mixed with equal volume of 100% ethanol; for Upper phase (0.3 L) concentration / Lower phase (1 L) concentration / Total produced in 1 L: PALCPR-solvent; for Upper phase (0.3 L) concentration: 200 ml dodecane + 100 ml octylacetate on 1 L medium, at galactose depletion; for Lower phase (1 L) concentration: aqueous medium phase, dodecane/octylacetate; for Total produced in 1 L: upper x 0.3 + lower
Procedure: A Phenomenex (Torrance, Calif., USA) Luna 3 micrometer C18 (100×2.00 mm) column was used at 60° C. As mobile phase a gradient of acetonitrile and milliq water (both containing 50 ppm trifluoroacetic acid) was used at a flow of 0.4 ml/min. The gradient profile was linear from 15% acetonitrile to 100% acetonitrile over 20 min.

SMILES | Supernatant, no ethanol | Supernatant, ethanol | Upper phase (0.3 L) concentration | Lower phase (1 L) concentration | Total produced in 1 L
O=C(O)C=Cc1ccccc1 [Cinnamic acid, cinnamic acid] | 3.59 mg/L | 9.70 mg/L | 20.72 mg/L | 4.72 mg/L | 10.93 mg/L
Oc1cc(O)cc(/C=C/c2ccccc2)c1 [Pinosylvin, pinosylvin] | 1.74 mg/L | 22.63 mg/L | 55.84 mg/L | 0.85 mg/L | 17.6 mg/L
